Results from article PMC6114103, “17-DMAG inhibits the multiplication of several Babesia species and Theileria equi on in vitro cultures, and Babesia microti in mice” (International Journal for Parasitology: Drugs and Drug …, 2018).

How the values were obtained:
Assay in all cases: in vitro multiplication inhibition assay (SYBR Green I fluorescence, 96 h), single drugs and two-drug combinations
[1] = system: B. bovis (Texas strain); assay type: cell-based, Babesia bovis
Experimental: (§1) Babesia parasite cultures were maintained using a microaerophilic stationary-phase culture system ([Levy and Ristic, 1980]; [Avarzed et al., 1997]; [Igarashi et al., 1998]). Briefly, bovine Babesia parasites were grown in bovine red blood cells (RBC) in the specific complete medium for each species. The medium for B. bovis (Texas strain) contained GIT medium supplemented with 10% bovine serum, while the medium for B. bigemina (Argentina strain) and B. divergens (Germany strain) was Medium 199 and RPMI 1640 medium, respectively, supplemented with 40% bovine serum ([Rizk et al., 2016]). B. caballi (USDA strain) was grown using equine RBC in GIT medium supplemented with 10% equine serum. […]
(§2) The assays were conducted in accordance with the protocol described previously with modification ([Guswanto et al., 2014]). […] After incubation for 6 h, fluorescence values were measured using a fluorescence spectrophotometer (Fluoroskan Ascent, Thermo Fisher Scientific, USA) with the excitation and emission wavelength at 485 nm and 518 nm, respectively. The fluorescence data were subtracted from the negative control and used to calculate the IC50.
(§3) The IC50 of 17-DMAG, DA, and AV was calculated from the percentage of inhibition on the in vitro multiplication of all tested species using non-linear regression (curve fit), available in GraphPad Prism (GraphPad Software Inc., USA). […]

[2] = system: B. bigemina (Argentina strain); assay type: cell-based, Babesia bigemina
Experimental: as §1, §2, §3

[3] = system: B. divergens (Germany strain); assay type: cell-based, Babesia divergens
Experimental: as §1, §2, §3

[4] = system: B. caballi (USDA strain); assay type: cell-based, Babesia caballi
Experimental: as §1, §2, §3

[5] = system: T. equi (USDA strain); assay type: cell-based, Theileria equi
Experimental: as §1, §2, §3

SMILES: CC(=O)NCC(=O)O.CC(=O)NCC(=O)O.N=C(N)c1ccc(N=NNc2ccc(C(=N)N)cc2)cc1 [DA, diminazene aceturate]
- Selectivity index MDBK ([1]; ratio IC50 MDBK to IC50 B. bovis): >211
- Selectivity index NIH/3T3 ([1]; ratio IC50 NIH/3T3 to IC50 B. bovis): >211
- Selectivity index MDBK ([2]; ratio IC50 MDBK to IC50 B. bigemina): >22
- Selectivity index NIH/3T3 ([2]; ratio IC50 NIH/3T3 to IC50 B. bigemina): >22
- Selectivity index MDBK ([3]; ratio IC50 MDBK to IC50 B. divergens): >106
- Selectivity index NIH/3T3 ([3]; ratio IC50 NIH/3T3 to IC50 B. divergens): >106
- Selectivity index MDBK ([4]; ratio IC50 MDBK to IC50 B. caballi): >2985
- Selectivity index NIH/3T3 ([4]; ratio IC50 NIH/3T3 to IC50 B. caballi): >2985
- Selectivity index MDBK ([5]; ratio IC50 MDBK to IC50 T. equi): >668
- Selectivity index NIH/3T3 ([5]; ratio IC50 NIH/3T3 to IC50 T. equi): >668
